Results as given in publication PMC8308780, “Antiviral Activity of Isoquinolone Derivatives against Influenza Viruses and Their Cytotoxicity” (Pharmaceuticals, 2021).
Structures can show the parent of a compound that is named as a salt.

Key:
Details in all cases: ratio CC50 / EC50
B/Lee/40 (Lee) = format: cell-based, influenza B virus
[1] = system: A/Hong Kong/8/68 (H3N2; HK); format: cell-based, influenza A virus
[2] = system: A/Puerto Rico/8/34 (H1N1; PR8); format: cell-based, influenza A virus

COc1ccccc1-c1cc2ccccc2c(=O)[nH]1 [Compound 5]
S.I. Lee (B/Lee/40 (Lee)): 86.0

O=c1[nH]c(-c2ccccc2O)cc2ccccc12 [Compound 3]
S.I. HK [1]: > 2.9
S.I. PR8 [2]: > 5.3

CCc1cc2c(cc1-c1cc3ccc(OC)c(O)c3c(=O)n1C)OCO2 [Compound 17]
S.I. HK [1]: 18.8
S.I. PR8 [2]: 3.0

NC(=O)c1ncn([C@@H]2O[C@H](CO)[C@@H](O)[C@H]2O)n1 [RBV, ribavirin, reference compound]
S.I. HK [1]: 43.8 (>19.7)
S.I. PR8 [2]: 25.0 (>16.2)

Cc1cccc(-c2cc3c(N(C)C)cccc3c(=O)[nH]2)c1 [Compound 6]
S.I. Lee (B/Lee/40 (Lee)): > 5.1

NC12CC3CC(CC(C3)C1)C2 [AMT, amantadine hydrochloride, reference compound]
S.I. HK [1]: > 187.5

COc1ccc(-c2[nH]c(=O)c3ccc(C)cc3c2Br)cc1OC [Compound 13]
S.I. HK [1]: > 1.7
S.I. PR8 [2]: > 1.7

O=c1[nH]c(-c2ccccc2)cc2ccccc12 [Compound 2, 3-phenylisoquinolone]
S.I. HK [1]: > 4.1
S.I. PR8 [2]: > 6.7
S.I. Lee (B/Lee/40 (Lee)): > 3.4

COc1ccc2cc(-c3cc4c(cc3CCO)OCO4)n(C)c(=O)c2c1OC [Compound 19]
S.I. HK [1]: > 6.5
S.I. PR8 [2]: > 5.0
S.I. Lee (B/Lee/40 (Lee)): > 13.5

CCC(CC)O[C@@H]1C=C(C(=O)O)C[C@H](N)[C@H]1NC(C)=O [OSV-C, oseltamivir carboxylate, reference compound]
S.I. HK [1]: > 10,000
S.I. PR8 [2]: > 6000

CCc1cc2c(cc1-c1cc3ccc(OC)c(OC)c3c(=O)n1C)OCO2 [Compound 1, 3-(6-ethylbenzo[d][1,3]dioxol-5-yl)-7,8-dimethoxy-2-methylisoquinolin-1(2H)]
S.I. HK [1]: 130.0
S.I. PR8 [2]: 195.0
S.I. Lee (B/Lee/40 (Lee)): 65.0

COc1ccc(-c2cc3cc(C)ccc3c(=O)[nH]2)cc1OC [Compound 11]
S.I. HK [1]: > 3.2
S.I. PR8 [2]: > 9.3
S.I. Lee (B/Lee/40 (Lee)): > 4.0

O=c1[nH]c(-c2ccccc2CO)cc2ccccc12 [Compound 4]
S.I. HK [1]: > 3.7
S.I. PR8 [2]: > 5.7
S.I. Lee (B/Lee/40 (Lee)): > 17.4

COc1cc2cc(-c3ccccc3)[nH]c(=O)c2cc1OC [Compound 21, 6,7-dimethoxy-3-phenylisoquinolone]
S.I. HK [1]: > 27.5
S.I. PR8 [2]: > 16.2
S.I. Lee (B/Lee/40 (Lee)): > 30.3

C=Cc1cc2c(cc1-c1cc3ccc(OC)c(OC)c3c(=O)n1C)OCO2 [Compound 18]
S.I. HK [1]: 28.8
S.I. PR8 [2]: 14.4
S.I. Lee (B/Lee/40 (Lee)): 36.6

COc1ccc2cc(-c3cc4c(cc3CCO)OCO4)[nH]c(=O)c2c1OC [Compound 20]
S.I. HK [1]: > 25.2
S.I. PR8 [2]: > 10.1
S.I. Lee (B/Lee/40 (Lee)): > 19.2
